Results on six molecules are retold here after the supplement of paper PMC12637763.

The list shows a part of the results. Env chains of viruses from a treatment-interruption trial, translated from the printed DNA. IC50 / IC80 of two broadly neutralizing antibodies; lower = more sensitive virus; >50 µg/ml means not reached and <0.001 µg/ml is below the lowest dose. No active / inactive call.

The chains are these.
B1: HIV-1 Env, rebound clone, placebo arm (protein)
chain: MKVRGTKMNWQHLWWRWGTMLLGMLMICKATEEKWVTVYYGVPVWKEATTTLFCASDAKAYEKEAHNVWATHACVPTDPSPQEVVLENVTENFNMWKNNMVEQMHEDIISLWDQSLKPCVKLTPLCVTLNCTDYTNSNSTNHTNSNSSSPTPTAGGEIKNCSFNITTNIRDKIKKEHALFYSLDVVQIDINDNTSYRLISCNTSVITQACPKTTFEPIPIYYCAPAGFAILKCNNKTFDGKGPCKNVSTVQCTHGIRPVVSTQLLLNGSLAEKEIVIRSDNFSDNTKNIIVQLKDPVVINCTRPNNNTRKGIHIGPGRAFYATGKVIGDIRQAYCNISKEEWNKTLGQIVKKLGAQFGNKTTMIFNQSSGGNPEIVTHSFNCGGEFFYCNTSALFNSTWSSNDGNGTWNKTNSTKTNSTEIILQCRIKQIVNMWQEVGKAMYAPPIKGPIRCSSNITGLILTRDGGNNTGNNSETFRPAGGNMRDNWRSELYKYKIVKIEPLGIAPTKAKRRTVQREKRAVTMGAMFLGFLGAAGSTMGAASLTLTVQARQLLSGIVQQQNNLLRAIEAQQHLLQLTVWGIKQLQARVLAVKRYLADQRFLGIWGCSGKLICTTTVPWNNSWSNKSLDSIWNNMTWMQWEKEIENYTGEIYNLIEQAQNQQEQNERELLELDKWASLWNWFDISNWLWYIKIFIMIVGGLIGLRIVFAVLSIVNRVRQGYSPLSLQTLLPTPRGPDRPEGIEGEGGERDRDTSIRLVDGFLALFWDDLRNLCLFSYRHLRDLLLIAARIVELLGLRGWEILKYLWNLLLYWSQELKNSAISLLDATAIAVAEGTDRIIEAVRRFCRGVLHIPRRIRQGFERALQ
B2: HIV-1 Env, rebound clone, placebo arm (protein)
chain: MKVRGTKMNWQHLWWRWGTMLLGMLMICKATEEKWVTVYYGVPVWKEATTTLFCASDAKAYEKEAHNVWATHACVPTDPSPQEVVLENVTENFNMWKNNMVEQMHEDIISLWDQSLKPCVKLTPLCVTLNCTDYTNSNSTNHTNSNSSSPTPTAGGEIKNCSFNITTNIRDKIKKEHALFYSLDVVQIDINDNTSYRLISCNTSVITQACPKTTFEPIPIYYCAPAGFAILKCNNKTFDGKGPCKNVSTVQCTHGIRPVVSTQLLLNGSLAEKEIVIRSDNFSDNTKNIIVQLKDPVVINCTRPNNNTRKGIHIGPGRAFYATGKVIGDIRQAYCNISKEEWNKTLGQIVKKLGAQFGNKTTMIFNQSSGGDPEIVTHSFNCGGEFFYCNTSALFNSTWSSNDGNGTWNKTNSTETNSTEIILQCRIKQIVNMWQEVGKAMYAPPIKGPIRCSSNITGLILTRDGGNNTGNNSETFRPAGGNMRDNWRSELYKYKIVKIEPLGIAPTKAKRRTVQREKRAVTMGAMFLGFLGTAGSTMGAASLTLTVQARQLLSGIVQQQNNLLRAIEAQQHLLQLTVWGIKQLQARVLAVERYLADQRFLGIWGCSGKLICTTTVPWNNSWSNKSLDSIWNNMTWMQWEKEIENYTGEIYNLIEQAQNQQEQNERELLELDKWASLWNWFDISNWLWYIKIFIMIVGGLIGLRIVFAVLSIVNRVRQGYSPLSLQTLLPTPRGPDRPEGIEGEGGERDRDTSIRLVDGFLALFWDDLRNLCLFSYRHLRDLLLIAARIVELLGLRGWEILKYLWNLLLYWSQELKNSAISLLDATAIAVAEGTDRIIEAVRRFCRGVLHIPRRIRQGFERALQ
B3: HIV-1 Env, rebound clone, placebo arm (protein)
chain: MKVRGTKMNWQHLWWRWGTMLLGMLMICKATEEKWVTVYYGVPVWKEATTTLFCASDAKAYEKEAHNVWATHACVPTDPSPQEVVLENVTENFNMWKNNMVEQMHEDIISLWDQSLKPCVKLTPLCVTLNCTDYTNSNSTNHTNSNSSSPTPTAGGEIKNCSFNITTNIRDKIKKEHALFYSLDVVQIDINDNTSYRLISCNTSVITQACPKTTFEPIPIYYCAPAGFAILKCNNKTFDGKGPCKNVSTVQCTHGIRPVVSTQLLLNGSLAEKEIVIRSDNFSDNTKNIIVQLKDPVVINCTRPNNNTRKGIHIGPGRAFYATGKVIGDIRQAYCNISKEKWNKTLGQIVKKLGAQFGNKTTMIFNQSSGGDPEIVTHSFNCGGEFFYCNTSALFNSTWSSNDGNGTWNKTNSTETNSTEIILQCRIKQIVNMWQEVGKAMYAPPIKGPIRCSSNITGLILTRDGGNNTGNNSETFRPAGGNMRDNWRSELYKYKIVKIEPLGIAPTKAKRRTVQREKRAVTMGAMFLGFLGAAGSTMGAASLTLTVQARQLLSGIVQQQNNLLRAIEAQQHLLQLTVWGIKQLQARVLAVERYLADQRFLGIWGCSGKLICTTTVPWNNSWSNKSLDSIWNNMTWMQWEKEIENYTGEIYNLIEQAQNQQEQNERELLELDKWASLWNWFDISNWLWYIKIFIMIVGGLIGLRIVFAVLSIVNRVRQGYSPLSLQTLLPTPRGPDRPEGIEGEGGERDRDTSIRLVDGFLALFWDDLRNLCLFSYRHLRDLLLIAARIVELLGLRGWEILKYLWNLLLYWSQELKNSAISLLDATAIAVAEGTDRIIEAVRRFCRGVLHIPRRIRQGFERALQ
B4: HIV-1 Env, rebound clone, placebo arm (protein)
chain: MKVRGTKMNWQHLWWRWGTMLLGMLMICKATEEKWVTVYYGVPVWKEATTTLFCASDAKAYEKEAHNVWATHACVPTDPSPQEVVLENVTENFNMWKNNMVEQMHEDIISLWDQSLKPCVKLTPLCVTLNCTDYTNSNSTNHTNSNSSSPTPTAGGEIKNCSFNITTNIRDKIKKEHALFYSLDVVQIDINDNTSYRLISCNTSVITQACPKTTFEPIPIYYCAPAGFAILKCNNKTFDGKGPCKNVSTVQCTHGIRPVVSTQLLLNGSLAEKEIVIRSDNFSDNTKNIIVQLKDPVVINCTRPNNNTRKGIHIGPGRAFYATGKVIGDIRQAYCNISKEEWNKTLGQIVKKLGAQFGNKTTMIFNQSSGGDPEIVTHSFNCGGEFFYCNTSALFNSTWSSNDGNGTWNKTNSTETNSTEIILQCRIKQIVNMWQEVGKAMYAPPIKGPIRCSSNITGLILTRDGGNNTGNNSETFRPAGGNMRDNWRSELYKYKIVKIEPLGIAPTKAKRRTVQREKRAVTMGAMFLGFLGVAGSTMGAASLTLTVQARQLLSGIVQQQNNLLRAIEAQQHLLQLTVWGIKQLQARVLAVERYLADQRFLGIWGCSGKLICTTTVPWNNSWSNKSLDSIWNNMTWMQWEKEIENYTGEIYNLIEQAQNQQEQNERELLELDKWASLWNWFDISNWLWYIKIFIMIVGGLIGLRIVFAVLSIVNRVRQGYSPLSLQTLLPTPRGPDRPEGIEGEGGERDRDTSIRLVDGFLALFWDDLRNLCLFSYRHLRDLLLIAARIVELLGLRGWEILKYLWNLLLYWSQELKNSAISLLDATAIAVAEGTDRIIEAVRRFCRGVLHIPRRIRQGFERALQ
B5: HIV-1 Env, rebound clone, placebo arm (protein)
chain: MKVRGTKMNWQHLWWRWGTMLLGMLMICKATEEKWVTVYYGVPVWKEATTTLFCASDAKAYEKEAHNVWATHACVPTDPSPQEVVLENVTENFNMWKNNMVEQMHEDIISLWDQSLKPCVKLTPLCVTLNCTDYTNSNSTNHTNSNSSSPTPTAGGEIKNCSFNITTNIRDKIKKEHALFYSLDVVQIDINDNTSYRLISCNTSVITQACPKTTFEPIPIYYCAPAGFAILKCNNKTFDGKGPCKNVSTVQCTHGIRPVVSTQLLLNGSLAEKEIVIRSDNFSDNTKNIIVQLKDPVVINCTRPNNNTRKGIHIGPGRAFYATGKVIGDIRQAYCNISKEEWNKTLGQIVKKLGAQFGNKTTMIFNQSSGGDPEIVTHSFNCGGEFFYCNTSALFNSTWSSNDGNGTWNKTNSTETNSTEIILQCRIKQIVNMWQEVGKAMYAPPIKGPIRCSSNITGLILTRDGGNNTGNNSETFRPAGGNMRDNWRSELYKYKIVKIEPLGIAPTKAKRRTVQREKRAVTMGAMFLGFLGAAGSTMGAASLTLTVQARQLLSGIVQQQNNLLRAIEAQQHLLQLTVWGIKQLQARVLAVERYLADQRFLGIWGCSGKLICTTTVPWNNSWSNKSLDSIWNNMTWMQWEKEIENYTGEIYNLIEQAQNQQEQNERELLELDKWASLWNWFDISNWLWYIKIFIMIVGGLIGLRIVFAVLFIVNRVRQGYSPLSLQTLLPTPRGPDRPEGIEGEGGERDRDTSIRLVDGFLALFWDDLRNLCLFSYRHLRDLLLIAARIVELLGLRGWEILKYLWNLLLYWSQELKNSAISLLDATAIAVAEGTDRIIEAVRRFCRGVLHIPRRIRQGFERALQ
B6: HIV-1 Env, rebound clone, placebo arm (protein)
chain: MKVRGTKMNWQHLWWRWGTMLLGMLMICKATEEKWVTVYYGVPVWKEATTTLFCASDAKAYEKEAHNVWATHACVPTDPSPQEVVLENVTENFNMWKNNMVEQMHEDIISLWDQSLKPCVKLTPLCVTLNCTDYTNSNSTNHTNSNSSSPTPTAGGEIKNCSFNITTNIRDKIKKEHALFYSLDVVQIDINDNTSYRLISCNTSVITQACPKTTFEPIPIYYCAPAGFAILKCNNKTFDGKGPCKNVSTVQCTHGIRPVVSTQLLLNGSLAEKEIVIRSDNFSDNTKNIIVQLKDPVVINCTRPNNNTRKGIHIGPGRAFYATGKVIGDIRQAYCNISKEEWNKTLGQIVKKLGAQFGNKTTMIFNQSSGGDPEIVTHSFNCGGEFFYCNTSALFNSTWSSNDGNGTWNKTNSTETNSTEIILQCRIKQIVNMWQEVGKAMYAPPIKGPIRCSSNITGLILTRDGGNNTGNNSETFRPAGGNMRDNWRSELYKYKIVKIEPLGIAPTKAKRRTVQREKRAVTMGTMFLGFLGAAGSTMGAASLTLTVQARQLLSGIVQQQNNLLRAIEAQQHLLQLTVWGIKQLQARVLAVERYLADQRFLGIWGCSGKLICTTTVPWNNSWSNKSLDSIWNNMTWMQWEKEIENYTGEIYNLIEQAQNQQEQNERELLELDKWASLWNWFDISNWLWYIKIFIMIVGGLIGLRIVFAVLSIVNRVRQGYSPLSLQTLLPTPRGPDRPEGIEGEGGERDRDTSIRLVDGFLALFWDDLRNLCLFSYRHLRDLLLIAARIVELLGLRGWEILKYLWNLLLYWSQELKNSAISLLDATAIAVAEGTDRIIEAVRRFCRGVLHIPRRIRQGFERALQ

The target in one assay is antibody 10-1074. Briefly: neutralization IC50; higher = virus less sensitive to the antibody. How it is done: (§1)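 Pseudovirus bearing the Env chain mixed with antibody, from 50 µg/ml in fivefold dilutions, on TZM-bl reporter cells, in duplicate.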
Consider B1, for which the “neutralization IC50” value was 0.02 µg/mL.

With B2, the “neutralization IC50” value amounted to 0.006 µg/mL.

For B3, the “neutralization IC50” value was 0.005 µg/mL.

Regarding B4, the “neutralization IC50” value was found to be 0.016 µg/mL.

Take B5: the “neutralization IC50” value was determined as 0.003 µg/mL.

On to B6, for which the “neutralization IC50” value amounted to 0.004 µg/mL.

Another assay concerns the target antibody 3BNC117. The assay is described as above. How it is done: as §1
Take B1: the “neutralization IC50” value stood at 0.05 µg/mL.

B2: the “neutralization IC50” value was found to be 0.102 µg/mL.

Regarding B3, the “neutralization IC50” value came out at 0.106 µg/mL.

Regarding B4, the “neutralization IC50” value is 0.106 µg/mL.

Turning to B5, the “neutralization IC50” value came to 0.116 µg/mL.

B6: the “neutralization IC50” value came to 0.121 µg/mL.

In the next assay the target is antibody 10-1074. Put plainly: neutralization IC80; higher = virus less sensitive to the antibody. How it is done:
as §1
As to B1, the “neutralization IC80” value was 0.104 µg/mL.

Turning to B2, the “neutralization IC80” value turned out to be 0.032 µg/mL.

Take B3: the “neutralization IC80” value worked out at 0.023 µg/mL.

Take B4: the “neutralization IC80” value is 0.079 µg/mL.

Take B5: the “neutralization IC80” value came to 0.023 µg/mL.

Consider B6, for which the “neutralization IC80” value is 0.027 µg/mL.

The target of another assay is antibody 3BNC117. The description is as above. How it is done: as §1
For the molecule B1, the “neutralization IC80” value came to 0.28 µg/mL.

Consider B2, for which the “neutralization IC80” value came out at 0.892 µg/mL.

For the molecule B3, the “neutralization IC80” value amounted to 0.461 µg/mL.

B4: the “neutralization IC80” value was 0.546 µg/mL.

On to B5, for which the “neutralization IC80” value was 0.407 µg/mL.

As to B6, the “neutralization IC80” value worked out at 0.335 µg/mL.
